Values from PubChem BioAssay AID504761 (Drosophila RNAi Screening Center, 2011).

Purpose: 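Genome-wide fly cell screen for genes dengue virus requires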 (primary screen)
Cells: D.Mel-2 cells from Drosophila
Reagents: long dsRNA against Drosophila genes
Challenge: infection with dengue virus type 2; dose and infection time not stated
Detection: 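Cells stained for dengue envelope protein and imaged; percent of infected cells per well on duplicate plates, ranked by infection, with stained nuclei counted for cell number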
Direction: infection score: higher = more virus-infected cells
Call rule: 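Low infection ranks in the two replicates (chance level up to 0.065) followed by a retest with a 1.5-fold or larger significant decrease, p below 0.05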
Meaning of the calls: active = confirmed: knock-down lowers infection; inactive = not picked or not confirmed
The deposit covers about 22,000 reagents; below is an unselected part of those with a known target gene and a result. Over the whole deposit, 116 (0.52%) were called active. 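Calls depend on retest data that are not deposited; infection was ranked per plate without normalising between plates; the unit of the infection score is not given.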 The numbers tell different reagents against one gene apart. Names joined by + are all predicted targets of the reagent. Further read-outs or replicates are left out here. Not stated in the record: the amount of reagent, the time to read-out.

infection score, replicate 1, by gene knocked down and reagent
CG11566 (retired record) + stg1: #1 6.92 inactive; #2 3.54 inactive; #3 3.83 inactive; #4 6.34 inactive
CG31659: #1 1.25 inactive
RhoGDI: #1 6.99 inactive
CG42566: #1 1.54 inactive
CG11034: #1 1.68 inactive; #2 3.44 inactive
asRNA:CR42743 + CG34162: #1 5.54 inactive
vg: #1 2.33 inactive; #2 11.2 inactive; #3 19.6 inactive
CG10035: #1 2.56 inactive; #2 2.89 inactive
kn: #1 12.2 inactive; #2 22.7 inactive; #3 1.34 inactive; #4 2.53 inactive
CG11293 (retired record): #1 8.48 inactive
TotE: #1 5.76 inactive
CG12391: #1 10.7 inactive
CG42663: #1 7.88 inactive; #2 10.5 inactive; #3 3.02 inactive
Coq7: #1 4.94 inactive
CR33319: #1 0.11 active
CG4375: #1 3.07 inactive; #2 2.9 inactive
CG44774: #1 8.77 inactive; #2 4 inactive
CG11369: #1 16.3 inactive
CG7745: #1 0.98 inactive; #2 3.93 inactive
CG1840: #1 2.29 inactive; #2 4.27 inactive
CG9436: #1 11.1 inactive

Reprinted from above (9 entries):
infection score, replicate 1, by gene knocked down and reagent
CG11566 (retired record) + stg1: #4 6.34 inactive
CG31659: #1 1.25 inactive
RhoGDI: #1 6.99 inactive
CG42566: #1 1.54 inactive
CG11034: #1 1.68 inactive; #2 3.44 inactive
asRNA:CR42743 + CG34162: #1 5.54 inactive
vg: #1 2.33 inactive; #2 11.2 inactive

Additional entries:
infection score, replicate 1, by gene knocked down and reagent
CG31743 + CG34313: #1 2.75 inactive; #2 1.19 inactive
CG18265: #1 6.2 inactive
alpha-Est7: #1 0.91 inactive; #2 2.84 inactive
Sara: #1 3.87 inactive
Stam: #1 11.3 inactive; #2 1.49 inactive
Hsdl2: #1 2.69 inactive; #2 11.9 inactive
Had2: #1 9.35 inactive; #2 7.03 inactive
CG12448: #1 4.59 inactive
CG8870: #1 8.16 inactive
CG31562 (retired record): #1 5.38 inactive; #2 2.25 inactive
CG15473: #1 11.1 inactive
CG17002: #1 15.4 inactive; #2 32.4 inactive
CG14401: #1 1.44 inactive; #2 3.99 inactive; #3 2.71 inactive
